Laboratory results from PMC11254100 (Angewandte Chemie (International ed. in English), 2024).

Target: CAHEX:6HIS (Human immunodeficiency virus type 1 group M subtype B, UniProt P12493, A146C/E177C/M317A/W316A)
Conditions: BLI, positive control

Lenacapvir was tested, and the Kd was 28.6 ± 0.2 nM.
